Consider one molecule from patent US6159963A, “Method for treating substance abuse” (Eli Lilly and Company, priority 1996, dated 2000).

This test has as its system 5-HT-2 receptor. In words: pharmacological studies, 5-HT-2 receptor activity.

`Cc1cc2c(s1)Nc1ccccc1N=C2N1CCN(C)CC1` [olanzapine, 2-methyl-4-(4-methyl-1-piperazinyl)-10H-thieno[2,3-b][1,5]benzodiazepine]: the “activity at the 5-HT-2 receptor” value is given as “active at the 5-HT-2 receptor”.
